Z-score data for eleven molecules are collected here from PubChem BioAssay AID745 (Emory University Molecular Libraries Screening Center, 2007).

The list shows a part of the results, in another mix than the full data. The source made the active and inactive calls. Cut-off read from the data, not from the text of the source: active = z-score below about -3; inactive = the rest.

The nature of the experiment: inhibitors of measles virus growth in cells, primary screen, measles RdRp inhibitor project, cell-based, single point, HTS (AID 745). The conditions noted are these: infected Vero cells, GFP fluorescence, 64 h; active compounds read low.
As for `CCCOc1ccc(NP(C)(=O)Oc2ccc(Cl)cc2)cc1` (stereo unspecified), the z-score was inactive: -0.61.

Turning to `COc1cccc(OP(=O)(Nc2ccccn2)Oc2cccc(OC)c2)c1`, the z-score was inactive: -0.43.

For the molecule `Cc1cc(C)cc(OP(C)(=O)Nc2ccccn2)c1` (stereo unspecified), the z-score is inactive: -0.38.

`COP(=O)(OC)C(NC(=O)c1ccc(C)cc1)=C(Cl)Cl`: the z-score is inactive: -0.05.

Take `O=C(COc1ccc(F)cc1)OC1CN2CCC1CC2` (stereo unspecified): the z-score is inactive: 0.84.

Regarding `CP(=O)(Nc1ccc(Cl)cc1)Oc1ccc(F)cc1` (stereo unspecified), the z-score was inactive: -0.26.

In the case of `Cn1cc([N+](=O)[O-])nc1[N+](=O)[O-]`, the z-score was inactive: -0.34.

For the molecule `CCOP(=S)(NCC(C)C)OCC`, the z-score is inactive: -0.21.

Regarding `CC(CNC(=O)C(C)([N+](=O)[O-])[N+](=O)[O-])([N+](=O)[O-])[N+](=O)[O-]`, the z-score is inactive: -0.65.

As to `COc1ccccc1OP(=O)(Nc1ccccn1)Oc1ccccc1OC`, the z-score is inactive: -0.37.

For `Cc1cc(C)cc(OP(C)(=O)Nc2cccc(Cl)c2C)c1` (stereo unspecified), the z-score was inactive: -0.58.
